Results of unrelated studies side by side (data: NIAID ChemDB).

Common to all: tests in culture; species: Mycobacterium avium complex; measure: MIC

Rows are shuffled and stem from different studies. Blank or dashed fields: not listed here. a–b is a range or a potency band.

smiles | strain or isolate | read by | result
CC1(C)N=C(N)N=C(N)N1OCCCOc1cc(Cl)c(Cl)cc1Cl | 1439 |  | 4 µg/mL
COc1ccc2nccc(/C=C\C3CCCCC3)c2c1 | 5 clinical isolates |  | 16 µg/mL
CCCCCN(CCCCC)c1ccc2c(=O)n3c(nc2c1)C(=O)c1cc(Cl)ccc1-3 | 19075 |  | 25 µg/mL
CCCCN(CCCC)C[C@H](O)c1cc2c(Cl)cc(Cl)cc2c2cc(C(F)(F)F)ccc12 | 5 clinical isolates |  | 1–2 µg/mL
CC(C)N=C(N)/N=C(\N)Nc1ccc(Cl)cc1 | LPR |  | 128 µg/mL
O=C1c2cc(F)ccc2-n2c1nc1ccc(F)cc1c2=O | 101 |  | ≤0.2 µg/mL
NNC(=O)c1ccncc1 | 13-2732 |  | 0.32–0.4 µg/mL
CCc1nc(N)nc(N)c1-c1ccc(Cl)cc1 | 9141 |  | 32 µg/mL
O[C@H](c1cc2ccc(C(F)(F)F)cc2c2cc(C(F)(F)F)ccc12)[C@H]1CCCCN1 | 101 (clarithromycin-resistant) |  | 4 µg/mL
CN(C)c1ccc(O)c2c1C[C@H]1C[C@H]3[C@H](N(C)C)C(=O)C(C(N)=O)=C(O)[C@@]3(O)C(=O)C1=C2O | LV-2 |  | 32 µg/mL
NC[C@H]1O[C@H](O[C@H]2[C@H](O)[C@@H](O[C@H]3O[C@H](CO)[C@@H](O)[C@H](N)[C@H]3O)[C@H](N)C[C@@H]2N)[C@H](O)[C@@H](O)[C@@H]1O | CIPT 140310002 |  | 5 µg/mL
O[C@@H](c1cc2ccc(C(F)(F)F)cc2c2cc(C(F)(F)F)ccc12)[C@@H]1CCCCN1 | 5 clinical isolates |  | 4 µg/mL
CC(C)NC(=O)OCCN=c1ssc2ccccc12 | AN1 |  | 2 µg/mL
CO[C@H]1/C=C/O[C@@]2(C)Oc3c(C)c(O)c4c(=O)c(c5oc6cc(N7CCN(C)CC7)cc(=O)c6nc5c4c3=C2O)NC(=O)/C(C)=C\C=C\[C@H](C)[C@H](O)[C@@H](C)[C@@H](O)[C@@H](C)[C@H](OC(C)=O)[C@@H]1C | 31F093T |  | 0.035 µg/mL
CO[C@H]1/C=C/O[C@@]2(C)Oc3c(C)c(O)c4c(=O)c(c5oc6cc(N7CCN(CC(C)C)CC7)cc(=O)c6nc5c4c3=C2O)NC(=O)/C(C)=C\C=C\[C@H](C)[C@H](O)[C@@H](C)[C@@H](O)[C@@H](C)[C@H](OC(C)=O)[C@@H]1C | N-976 (HIV+) |  | 0.1 µg/mL
CN1N=C(c2ccncc2)OC1c1ccc(F)cc1 | 12592 PI |  | >20 µg/mL
C#CCNC(=O)O[C@H]1C(O[C@@H]2[C@@H](C)[C@H](O[C@H]3C[C@@](C)(OC)[C@@H](OC(C)=O)[C@H](C)O3)[C@@H](C)C(=O)O[C@H](CC)[C@@](C)(O)[C@H](O)[C@@H](C)/C(=N/OCCCC3CCCCC3)[C@H](C)CC2(C)O)O[C@H](C)C[C@@H]1N(C)C | 20045 |  | 0.2 µg/mL
C/C(=N\NC(=O)c1ccncc1)c1ccccc1F | 12592 PI |  | >5 µg/mL
CC[C@H]1OC(=O)[C@H](C)[C@@H](O[C@H]2C[C@@](C)(OC)[C@@H](OC(C)=O)[C@H](C)O2)[C@H](C)[C@@H](OC2O[C@H](C)C[C@H](N(C)C)[C@H]2OC(=O)NCCCCCCCCCCCCCCN(C)C)C(C)(O)C[C@@H](C)/C(=N\OCCCC2CCCCC2)[C@H](C)[C@@H](O)[C@]1(C)O | 20045 |  | 0.78 µg/mL
CC[C@H]1OC(=O)[C@H](C)[C@@H](O[C@H]2C[C@@](C)(OC)[C@@H](O)[C@H](C)O2)[C@H](C)[C@@H](O[C@@H]2O[C@H](C)C[C@H](N(C)C)[C@H]2O)[C@](C)(OC)C[C@@H](C)C(=O)[C@H](C)[C@@H](O)[C@]1(C)O | LV-2 |  | 0.5 µg/mL
C/C(=N\NC(=O)c1ccncc1)c1cccc(C(F)(F)F)c1 | 12592 PI |  | >20 µg/mL
CCNC(=O)OCCn1sc2ccccc2c1=S | ATCC 15769 |  | 4 µg/mL
CC[C@H]1OC(=O)[C@H](C)[C@@H](O[C@H]2C[C@@](C)(OC)[C@@H](OC(C)=O)[C@H](C)O2)[C@H](C)[C@@H](OC2O[C@H](C)C[C@H](N(C)C)[C@H]2OC(=O)NCC(=O)NC)C(C)(O)C[C@@H](C)/C(=N\OCCCC2CCCCC2)[C@H](C)[C@@H](O)[C@]1(C)O | 20092 |  | 0.78 µg/mL
Cc1ccc2nc(C)c(C(=O)NCc3ccc(C(F)(F)F)cc3)n2c1 | Clinical isolate LPR | MTT | 2 µg/mL
CC[C@H]1OC(=O)[C@H](C)[C@@H](O[C@H]2C[C@@](C)(OC)[C@@H](O)[C@H](C)O2)[C@H](C)[C@@H](O[C@@H]2O[C@H](C)C[C@H](N(C)C)[C@H]2O)[C@](C)(O)C[C@@H](C)CN(C)[C@H](C)[C@@H](O)[C@]1(C)O | R |  | 16 µg/mL
CCCCNC(=O)OCCN=c1ssc2ccccc12 | AN1 |  | 2 µg/mL
CC1(C)S[C@@H]2[C@H](NC(=O)[C@H](C(=O)[O-])c3ccsc3)C(=O)N2[C@H]1C(=O)[O-].[Na+].[Na+] | CIPT 140310003 (rough) |  | 35 µg/mL
COc1ccc(C2OC(c3ccncc3)=NN2C)cc1OC | 12592 PI |  | >20 µg/mL
O=C1c2cc(F)ccc2-n2c1nc1ccc(Cl)cc1c2=O | 19075 |  | 0.06 µg/mL
CC[C@H]1OC(=O)[C@H](C)[C@@H](O[C@H]2C[C@@](C)(OC)[C@@H](O)[C@H](C)O2)[C@H](C)[C@@H](O[C@@H]2O[C@H](C)C[C@H](N(C)C)[C@H]2O)[C@](C)(OC)C[C@@H](C)C(=O)[C@H](C)[C@@H](O)[C@]1(C)O | N-444 |  | 6.25 µg/mL
CN1N=C(c2ccncc2)OC1c1ccccc1F | 12592 PI |  | >20 µg/mL
Cc1noc(NS(=O)(=O)c2ccc(N)cc2)c1C | F-2 |  | 25 µg/mL
COc1ccc(/C(C)=N/NC(=O)c2ccncc2)cc1OC | 12592 PI |  | >20 µg/mL
CCCCNC(=O)OCCn1sc2ccccc2c1=S | AN2 |  | 4 µg/mL
CCCCCCCCc1ccc2c(c1)C(=O)c1nc3ccncc3c(=O)n1-2 | 19075 |  | 0.06 µg/mL
C[C@@H](O)[C@H]1C(=O)N2C(C(=O)O)=C(SCCN=CN)C[C@H]12 | CIPT 140310003 (rough) |  | >10 µg/mL
CC(C)NC(=O)OCCn1sc2ccccc2c1=O | AN3 |  | 16 µg/mL
CO[C@H]1/C=C/O[C@@]2(C)Oc3c(C)c(O)c4c(=O)c(c5oc6cc(N7CCN(CC=C(C)C)CC7)cc(=O)c6nc5c4c3=C2O)NC(=O)/C(C)=C\C=C\[C@H](C)[C@H](O)[C@@H](C)[C@@H](O)[C@@H](C)[C@H](OC(C)=O)[C@@H]1C | 31F093T |  | 0.035 µg/mL
CC[C@H]1OC(=O)[C@H](C)[C@@H](O[C@H]2C[C@@](C)(OC)[C@@H](O)[C@H](C)O2)[C@H](C)[C@@H](O[C@@H]2O[C@H](C)C[C@H](N(C)C)[C@H]2O)[C@](C)(OC)C[C@@H](C)C(=O)[C@H](C)[C@@H](O)[C@]1(C)O | Isolate 90-0791 |  | 3 µg/mL
CCCNC(=O)OCCn1sc2ccccc2c1=S | AN1 |  | 4 µg/mL
COc1cccc2c(=O)n3c(nc12)C(=O)c1cc(S(=O)(=O)N2CCN(C)CC2)ccc1-3 | 19075 |  | >25 µg/mL
CO/C(=N\N=C\c1ccc(Cl)cc1Cl)c1ccncc1 | 12592 PI |  | >20 µg/mL
CO[C@H]1/C=C/O[C@@]2(C)Oc3c(C)c(O)c4c(O)c(c5c(c4c3C2=O)NC2(CCN(CC(C)C)CC2)N=5)=NC(=O)/C(C)=C\C=C\[C@H](C)[C@H](O)[C@@H](C)[C@@H](O)[C@@H](C)[C@H](OC(C)=O)[C@@H]1C | N-238 (HIV-) |  | 0.125 µg/mL
CCCCCCCCNC(=O)O[C@H]1C(O[C@@H]2[C@@H](C)[C@H](O[C@H]3C[C@@](C)(OC)[C@@H](OC(C)=O)[C@H](C)O3)[C@@H](C)C(=O)O[C@H](CC)[C@@](C)(O)[C@H](O)[C@@H](C)/C(=N/OCCCC3CCCCC3)[C@H](C)CC2(C)O)O[C@H](C)C[C@@H]1N(C)C | 20096 |  | 0.2 µg/mL
CC(C)NC(=O)OCCn1sc2ccccc2c1=S | AN1 |  | 2 µg/mL
Cc1onc(-c2ccccc2Cl)c1C(=O)N[C@@H]1C(=O)N2[C@@H]1SC(C)(C)[C@@H]2C(=O)O | CIPT 140310006 |  | 35 µg/mL
CO[C@H]1/C=C/O[C@@]2(C)Oc3c(C)c(O)c4c(O)c(c(/C=N/N5CCN(C6CCCC6)CC5)c(O)c4c3C2=O)NC(=O)/C(C)=C\C=C\[C@H](C)[C@H](O)[C@@H](C)[C@@H](O)[C@@H](C)[C@H](OC(C)=O)[C@@H]1C | 101 |  | 0.25 µg/mL
CO/C(=N\N=C\c1ccccc1F)c1ccncc1 | 12592 PI |  | >1 µg/mL
CC[C@H]1OC(=O)[C@H](C)[C@@H](O[C@H]2C[C@@](C)(OC)[C@@H](OC(C)=O)[C@H](C)O2)[C@H](C)[C@@H](O[C@@H]2O[C@H](C)C[C@H](N(C)C)[C@H]2O)C(C)(O)C[C@@H](C)/C(=N\OCCCC2CCCCC2)[C@H](C)[C@@H](O)[C@]1(C)O | 20045 |  | 3.13 µg/mL
CCCCCCCCc1ccc2c(c1)C(=O)c1nc3c(OC)cccc3c(=O)n1-2 | 19075 |  | 5 µg/mL
CO[C@H]1/C=C/O[C@@]2(C)Oc3c(C)c(O)c4c(O)c(c5c(c4c3C2=O)NC2(CCN(CC(C)C)CC2)N=5)=NC(=O)/C(C)=C\C=C\[C@H](C)[C@H](O)[C@@H](C)[C@@H](O)[C@@H](C)[C@H](OC(C)=O)[C@@H]1C | 3009-4 |  | 1 µg/mL
CC[C@H]1OC(=O)[C@H](C)[C@@H](O[C@H]2C[C@@](C)(OC)[C@@H](OC(C)=O)[C@H](C)O2)[C@H](C)[C@@H](OC2O[C@H](C)C[C@H](N(C)C)[C@H]2OC(N)=O)C(C)(O)C[C@@H](C)/C(=N\OCCCC2CCCCC2)[C@H](C)[C@@H](O)[C@]1(C)O | 20034 |  | 3.13 µg/mL
CN1N=C(c2ccncc2)OC1c1ccc(Cl)cc1Cl | 12592 PI |  | >20 µg/mL
O=C1c2cc(Cl)ccc2-n2c1nc1cc(N3CCOCC3)ccc1c2=O | 19075 |  | >25 µg/mL
Cc1ccn2c(C(=O)NCc3ccc4c(c3)CCO4)c(C)nc2c1 | Clinical isolate 9141 | MTT | 2 µg/mL
CO[C@H]1/C=C/O[C@@]2(C)Oc3c(C)c(O)c4c(=O)c(c5oc6cc(N7CCCN(C)CC7)cc(=O)c6nc5c4c3=C2O)NC(=O)/C(C)=C\C=C\[C@H](C)[C@H](O)[C@@H](C)[C@@H](O)[C@@H](C)[C@H](OC(C)=O)[C@@H]1C | 31F093T |  | 0.6 µg/mL
O=C1c2c(cccc2C(F)(F)F)-n2c1nc1ccncc1c2=O | 19075 |  | 5 µg/mL
CCCNC(=O)OCCN=c1ssc2ccccc12 | AN3 |  | 4 µg/mL
Cc1cc(C)nc(NS(=O)(=O)c2ccc(N)cc2)n1 | FAR |  | 16 µg/mL
OCCN=c1ssc2ccccc12 | ATCC 15769 |  | 8 µg/mL
CCN1CCN(c2cc(=O)c3nc4c(oc3c2)c2c(=O)c3c(O)c(C)c5c(c34)=C(O)[C@@](C)(O/C=C/[C@H](OC)[C@@H](C)[C@@H](OC(C)=O)[C@H](C)[C@H](O)[C@H](C)[C@@H](O)[C@@H](C)/C=C/C=C(/C)C(=O)N2)O5)CC1 | 31F093T |  | 0.07 µg/mL

The first 5 rows once more:

smiles | strain or isolate | read by | result
CC1(C)N=C(N)N=C(N)N1OCCCOc1cc(Cl)c(Cl)cc1Cl | 1439 |  | 4 µg/mL
COc1ccc2nccc(/C=C\C3CCCCC3)c2c1 | 5 clinical isolates |  | 16 µg/mL
CCCCCN(CCCCC)c1ccc2c(=O)n3c(nc2c1)C(=O)c1cc(Cl)ccc1-3 | 19075 |  | 25 µg/mL
CCCCN(CCCC)C[C@H](O)c1cc2c(Cl)cc(Cl)cc2c2cc(C(F)(F)F)ccc12 | 5 clinical isolates |  | 1–2 µg/mL
CC(C)N=C(N)/N=C(\N)Nc1ccc(Cl)cc1 | LPR |  | 128 µg/mL